Anti-infective test results gathered from many reports (values: NIAID ChemDB through PubChem).

Common to all: tests in culture; agent: Influenza A virus; endpoint: EC50

Blank or dashed fields: not listed here. Conditions beyond the fields shown may differ between rows. ECn: concentration that inhibits the pathogen or its effect by n%.

{"SMILES": "C=C(N=CC)c1nc(-c2ccccc2)n([C@@H]2O[C@H](CO)[C@@H](O)[C@H]2O)n1", "strain or isolate": "Ishikawa", "cell line": "MDCK", "method": "cytopathic effect", "result": ">200 µg/mL"}
{"SMILES": "CC1(CO)CCC(Cn2cnc3c(=O)[nH]cnc32)C1(C)C", "strain or isolate": "H3N2 X31", "cell line": "MDCK", "method": "cytopathic effect", "result": ">250 µg/mL"}
{"SMILES": "NN1CC[N+]2(CC1)CC[N+]1(CCN(N)CC1)CC2", "cell line": "MDCK", "method": "cytopathic effect", "result": ">70 µg/mL"}
{"SMILES": "CC(=O)N[C@H]1[C@H]([C@H](O)[C@H](O)CO)OC(C(=O)O)=C[C@@H]1N=C(N)N", "strain or isolate": "Influenza A/Sydney/05/97 (H3N2)", "cell line": "MDCK", "method": "neutral red", "result": "0.078 µM"}
{"SMILES": "CC1(CO)CCC(Cn2nnc3c(N)ncnc32)C1(C)C", "strain or isolate": "H3N2 X31", "cell line": "MDCK", "method": "cytopathic effect", "result": ">50 µg/mL"}
{"SMILES": "C1=CCC2(CC1)COC(c1ccco1)OC2", "strain or isolate": "B/Singapore/222/79", "cell line": "MDCK", "method": "cytopathic effect", "result": ">500 µg/mL"}
{"SMILES": "CCC(CC)O[C@@H]1C=C(C(=O)O)C[C@H](N)[C@H]1NC(C)=O", "strain or isolate": "Influenza A/Victoria/3/75 (H3N2)", "cell line": "MDCK", "result": "0.06 µM"}
{"SMILES": "NS(=O)c1ncnc2c1ncn2[C@H]1C[C@H](O)[C@@H](CO)O1", "method": "cytopathic effect", "result": ">320 µM"}
{"SMILES": "C/C1=C\\C=C\\C2(C)C=C(CO)C(C)CC23OC([O-])C(C3=O)C(O)/C=C/C2(C)C=C(CO)C(C)CC23OC([O-])C(C3=O)C(O)/C(C)=C/C=C/C2C=C(CO)C(C)CC23OC([O-])C(C3=O)C(O)/C=C/C2(C)C=C(C=O)C(C)CC23OC([O-])C(C3=O)C1O", "strain or isolate": "A/Victoria", "cell line": "MDCK", "method": "cytopathic effect", "result": "9.9 µg/mL"}
{"SMILES": "C1C[N+]2(CCN1)CC[N+]1(CCNCC1)CC2", "cell line": "MDCK", "method": "cytopathic effect", "result": ">70 µg/mL"}
{"SMILES": "C/C1=C\\C=C\\C2(C)C=C(CO)C(C)CC23OC([O-])C(C3=O)C(O)/C=C/C2(C)C=C(C=O)C(C)CC23OC([O-])C(C3=O)C(O)/C(C)=C/C=C/C2C=C(CO)C(C)CC23OC([O-])C(C3=O)C(O)/C=C/C2(C)C=C(C=O)C(C)CC23OC([O-])C(C3=O)C1O", "strain or isolate": "A/Victoria", "cell line": "MDCK", "method": "cytopathic effect", "result": "6.8 µg/mL"}
{"SMILES": "C=C(N=CC)c1nc(-c2ccccc2)n(C2O[C@H](CO)[C@@H](O)[C@H](O)[C@H]2O)n1", "strain or isolate": "Ishikawa", "cell line": "MDCK", "method": "cytopathic effect", "result": ">200 µg/mL"}
{"SMILES": "C/C1=C\\C=C\\C2(C)C=C(CO[C@H]3O[C@H](CO)[C@H](O)[C@H](O)[C@H]3O)C(C)CC23OC([O-])C(C3=O)C(O)/C=C/C2(C)C=C(CO)C(C)CC23OC([O-])C(C3=O)C(O)/C(C)=C/C=C/C2C=C(CO[C@H]3O[C@H](CO)[C@H](O)[C@H](O)[C@H]3O)C(C)CC23OC([O-])C(C3=O)C(O)/C=C/C2(C)C=C(CO)C(C)CC23OC([O-])C(C3=O)C1O", "strain or isolate": "A/Victoria", "cell line": "MDCK", "method": "cytopathic effect", "result": "88 µg/mL"}
{"SMILES": "C[C@@H]1CCC[C@H](C)N1CCCNC(=O)c1cc(Cl)ccc1O", "strain or isolate": "H1N1 A/WSN/33 (H1N1)", "cell line": "MDCK", "method": "plaque count", "result": "1 µg/mL"}
{"SMILES": "NSc1ncnc2c1ncn2[C@H]1C[C@H](O)[C@@H](CO)O1", "method": "cytopathic effect", "result": ">320 µM"}
{"SMILES": "C=C(N=CC)c1nc(-c2cccc(OC)c2)n(C2O[C@H](CO)[C@@H](O)[C@H](O)[C@H]2O)n1", "strain or isolate": "Ishikawa", "cell line": "MDCK", "method": "cytopathic effect", "result": ">200 µg/mL"}
{"SMILES": "CCOc1cc(O)c(C(=O)/C=C/c2ccc(OC)cc2)c(OC)c1", "strain or isolate": "NWS", "cell line": "HeLa", "method": "cytopathic effect", "result": ">3 µg/mL"}
{"SMILES": "Cc1ccc(O)c(C(=O)N[C@@H]2CCC34CCC3N(Cc3ccccc3)C4C2)c1", "strain or isolate": "H1N1 A/WSN/33 (H1N1)", "cell line": "MDCK", "method": "plaque count", "result": ">50 µg/mL"}
{"SMILES": "CCC(CC)O[C@@H]1C=C(C(=O)O)C[C@H](N)[C@H]1NC(C)=O", "strain or isolate": "H1N1 A/FM/1/47", "cell line": "MDCK", "method": "plaque count", "result": "0.024 µM"}
{"SMILES": "CC1(CO)CCC(Cn2ccc(=O)[nH]c2=O)C1(C)C", "strain or isolate": "H3N2 X31", "cell line": "MDCK", "method": "cytopathic effect", "result": ">250 µg/mL"}
{"SMILES": "CCC(C)N1C2CCC23CC[C@H](NC(=O)c2cc(C)ccc2O)CC13", "strain or isolate": "H1N1 A/WSN/33 (H1N1)", "cell line": "MDCK", "method": "plaque count", "result": ">50 µg/mL"}
{"SMILES": "Cc1cc(NCCCCCCCCNc2cc(C)nc3cc(N(C)C)ccc23)c2ccc(N(C)C)cc2n1", "strain or isolate": "B/Singapore/222/79", "cell line": "MDCK", "method": "cytopathic effect", "result": ">500 µg/mL"}
{"SMILES": "CC=NC(=N)c1nc(-c2cccc(OC)c2)n(COCCO)n1", "strain or isolate": "Ishikawa", "cell line": "MDCK", "method": "cytopathic effect", "result": ">200 µg/mL"}
{"SMILES": "O=C(NCCCN1CCC[C@@H]2CCCC[C@@H]21)c1cc(Cl)ccc1O", "strain or isolate": "H1N1 A/WSN/33 (H1N1)", "cell line": "MDCK", "method": "plaque count", "result": ">50 µg/mL"}
{"SMILES": "CC=NC(=N)c1nc(-c2ccc(C)cc2)n(C/C=C/c2ccccc2)n1", "strain or isolate": "Ishikawa", "cell line": "MDCK", "method": "cytopathic effect", "result": ">20 µg/mL"}
{"SMILES": "NSc1ncnc2c1ncn2[C@@H]1O[C@H](CO)[C@@H](O)[C@@H]1O", "method": "cytopathic effect", "result": ">320 µM"}
{"SMILES": "[O-][n+]1onc2c(N3CC[N+]4(CC3)CC[N+]3(CCN(c5ncnc6no[n+]([O-])c56)CC3)CC4)ncnc21", "cell line": "MDCK", "method": "cytopathic effect", "result": ">70 µg/mL"}
{"SMILES": "CN1C2CCC23CC[C@H](NC(=O)c2cc(Cl)ccc2O)CC13", "strain or isolate": "H1N1 A/WSN/33 (H1N1)", "cell line": "MDCK", "method": "plaque count", "result": ">50 µg/mL"}
{"SMILES": "O=C(NCCCl)N1CC[N+]2(CC1)CC[N+]1(CCN(C(=O)NCCCl)CC1)CC2", "cell line": "MDCK", "method": "cytopathic effect", "result": ">70 µg/mL"}
{"SMILES": "CCOC(=O)c1ccc(OC(=O)CCCCCN=C(N)N)cc1.COS(=O)(=O)O", "strain or isolate": "B/Singapore/222/79", "cell line": "MDCK", "method": "cytopathic effect", "result": "130 µg/mL"}
{"SMILES": "Cc1ccc(O)c(C(=O)NCCCN2[C@H](C)CCC[C@@H]2C)c1", "strain or isolate": "H1N1 A/WSN/33 (H1N1)", "cell line": "MDCK", "method": "plaque count", "result": "0.7 µg/mL"}
{"SMILES": "CC=NC(=N)c1nc(-c2ccccc2)n(Cc2ccccc2)n1", "strain or isolate": "Ishikawa", "cell line": "MDCK", "method": "cytopathic effect", "result": ">20 µg/mL"}
{"SMILES": "O=[N+]([O-])c1cncnc1N1CC[N+]2(CC1)CC[N+]1(CCN(c3ncncc3[N+](=O)[O-])CC1)CC2", "cell line": "MDCK", "method": "cytopathic effect", "result": ">70 µg/mL"}

The first 4 rows once more:

| SMILES | strain or isolate | cell line | method | result |
|---|---|---|---|---|
| C=C(N=CC)c1nc(-c2ccccc2)n([C@@H]2O[C@H](CO)[C@@H](O)[C@H]2O)n1 | Ishikawa | MDCK | cytopathic effect | >200 µg/mL |
| CC1(CO)CCC(Cn2cnc3c(=O)[nH]cnc32)C1(C)C | H3N2 X31 | MDCK | cytopathic effect | >250 µg/mL |
| NN1CC[N+]2(CC1)CC[N+]1(CCN(N)CC1)CC2 |  | MDCK | cytopathic effect | >70 µg/mL |
| CC(=O)N[C@H]1[C@H]([C@H](O)[C@H](O)CO)OC(C(=O)O)=C[C@@H]1N=C(N)N | Influenza A/Sydney/05/97 (H3N2) | MDCK | neutral red | 0.078 µM |